Construct, isoform or probe ends are uncertain for at least one entry. For some of these results: A negative result means that nothing was seen under these conditions. Protein sequences can lack the tags named with them. For some of these results: Weaker means in comparison with the reference protein, sequence or condition of that experiment.
What was measured:
[1] = target: T1, PbExo (Plasmodium berghei ANKA) (UniProt A0A509AFJ3); assay: EMSA; conditions: 2 mM Mg2+, EMSA: 400 nM FAM-DNA, 500 mM NaCl, 10 mM DTT, 1 mg/ml BSA, 10% glycerol, 2 mM MgCl2, 30 min on ice, 6% native PAGE, recombinant protein, residues 115-453, protein details: C-terminal 6xHis
T1 sequence (looked up): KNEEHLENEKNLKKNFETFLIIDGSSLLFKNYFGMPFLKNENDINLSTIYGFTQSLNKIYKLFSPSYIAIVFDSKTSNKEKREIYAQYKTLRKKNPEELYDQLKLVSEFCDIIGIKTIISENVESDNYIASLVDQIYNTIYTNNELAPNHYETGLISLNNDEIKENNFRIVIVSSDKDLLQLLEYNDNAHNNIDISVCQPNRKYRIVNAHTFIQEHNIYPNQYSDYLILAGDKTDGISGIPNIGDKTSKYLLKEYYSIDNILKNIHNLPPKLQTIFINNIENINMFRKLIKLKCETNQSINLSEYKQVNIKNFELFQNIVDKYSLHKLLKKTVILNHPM

[2] = target: T2, PfExo (Plasmodium falciparum 3D7) (UniProt O96139); assay: EMSA; conditions: 2 mM Mg2+, EMSA: 400 nM FAM-DNA, 500 mM NaCl, 10 mM DTT, 1 mg/ml BSA, 10% glycerol, 2 mM MgCl2, 30 min on ice, 6% native PAGE, recombinant protein, residues 91-577, protein details: C-terminal 6xHis
T2 sequence (looked up): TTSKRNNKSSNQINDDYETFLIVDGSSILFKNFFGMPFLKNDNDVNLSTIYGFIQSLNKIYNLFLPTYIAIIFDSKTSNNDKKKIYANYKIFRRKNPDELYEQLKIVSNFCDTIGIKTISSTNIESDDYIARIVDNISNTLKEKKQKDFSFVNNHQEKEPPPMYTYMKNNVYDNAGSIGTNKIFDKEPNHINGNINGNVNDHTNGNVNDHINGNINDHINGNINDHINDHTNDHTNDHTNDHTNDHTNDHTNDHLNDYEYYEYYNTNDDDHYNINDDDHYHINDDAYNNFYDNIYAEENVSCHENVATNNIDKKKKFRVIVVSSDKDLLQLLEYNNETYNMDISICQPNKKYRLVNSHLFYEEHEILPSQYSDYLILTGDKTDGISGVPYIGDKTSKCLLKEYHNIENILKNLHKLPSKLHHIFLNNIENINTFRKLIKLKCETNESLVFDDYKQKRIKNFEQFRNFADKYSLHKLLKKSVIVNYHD

| Sequence | binding result ([1]; 1-10 uM protein, label: 3' 6-FAM on strand 1) | binding result ([2]; label: 3' 6-FAM on strand 1) | binding result ([1]; shift at higher concentration than PfExo) | binding result [2] |
| --- | --- | --- | --- | --- |
| AAAACGTCAACTAGCTTCTCAAACACCTCATATATCTTAA (double strand) [Blunt-end dsDNA (40 bp)] | no binding | binds |  |  |
| CTAGTGTACATGCA / AAAACGTCAACTAGCTTCTCAAACACCTCATATATCTTAA / TTAAGATATATGAGGTGTTTGAGAAGCTAGTTGACGTTTTATGCATGTACACTAG [1 nt-gapped dsDNA] |  |  | binds more weakly | binds |

Reference: publication PMC11260460, “A Plasmodium apicoplast-targeted unique exonuclease/FEN exhibits interspecies functional differences attributable to an insertion that alters DNA-binding”
